Laboratory results as given in paper PMC10810714, “Antiretroviral Drug Exposure and Response in Obese and Morbidly Obese People With Human Immunodeficiency Virus (HIV): A Study Combining Modelling and Swiss HIV Cohort Data” (Clinical Infectious Diseases: An Official Publication of …, 2023).

Key:
HIV viral load = experiment: Drug response in obese versus nonobese participants in the SHCS (concentration below efficacy threshold and viral load >50 copies/mL)
Description: The viral load was analyzed in conjunction with the TDM data to evaluate whether a decrease in ARV exposure in obese PWH is associated with a viral load of more than 50 copies/mL (the viral load measured on the date of the TDM assessment was considered for this evaluation).

[1] = Observed pharmacokinetics of antiretrovirals in nonobese and obese individuals (SHCS therapeutic drug monitoring data and literature studies, noncompartmental analysis); conditions: standard oral dose at steady state, SHCS TDM data with or without literature data
Excerpt: We took several steps to analyse the impact of obesity on the ARVs exposure and response. First, we implemented our in-house PBPK model with our recently published virtual White obese population to simulate the pharmacokinetics of ARVs in nonobese and obese individuals. Next, we verified the simulations against the TDM data collected during the follow-up visits of the SHCS (multiple drug levels per individual were allowed [more information on the SHCS in the homonymous section in the Supplementary Material]). We then applied the verified model to extrapolate the pharmacokinetics across different obesity classes. Finally, the clinical relevance of obesity-related changes on drug response was evaluated by analyzing HIV viral load and the corresponding TDM values in obese and nonobese individuals in the SHCS.
All ARV drug models, except for doravirine (Supplementary Table 1), were previously developed and verified to predict the pharmacokinetics in healthy and elderly PWH [6, 12]. […] The TDM data were excluded if the participant’s age was younger than 20 or older than 50 years to avoid the age-related confounding effect on the pharmacokinetics, if a nonstandard ARV dosage was used, and if concurrent medications with inhibitory or inducing effects were used. The pharmacokinetic parameters including peak plasma concentration (Cmax), area under the curve to time t (AUCt), and trough concentration (Cτ) were derived from the TDM data using noncompartmental analysis.
A literature search was also performed to identify pharmacokinetic studies with ARVs conducted in obese and nonobese individuals. Data on the study design, characteristics of the participants, and pharmacokinetic results were collected. […] Available concentration-time profiles were digitalized using GetData Graph Digitizer V.2.26. The virtual trials were conducted by matching the participants’ demographics (eg, age, proportion of females, and BMI) and the ARV dosing regimen (Supplementary Table 2). The models were considered verified if the simulations were within 2-fold of observed data.
The Swiss HIV Cohort Study (SHCS) is an ongoing, nationwide, multicenter, clinic-based prospective cohort study in Switzerland with continuous enrollment and follow-up (twice a year) of people with HIV (PWH). Socio-demographic, clinical and laboratory data are recorded in detail. […] The collection of therapeutic drug monitoring (TDM) data in the SHCS database was initiated in 1998. All available TDM data for each evaluated antiretroviral drug were extracted from the SHCS database representing 6210 and 575 data points for the verification of the simulations in non-obese and obese individuals, respectively.

[2] = nonobese (BMI range per drug), GM
[3] = obese (BMI >=30, range per drug), GM (mean for etravirine)

Question: For darunavir/ritonavir, which “% PWH with concentration below efficacy threshold” value (HIV viral load; BMI 18.5–30 kg/m^2) is on record?
Answer: Its value is 4.3%.

Question: What about the “% PWH with concentration below efficacy threshold” value (HIV viral load; BMI >30 kg/m^2) of the same substance?
Answer: Its value is 0%.

Question: What about the “AUCt, observed, nonobese individuals” value [1, 2] of the same substance?
Answer: The value was 73 282 ng*h/mL.

Question: And the “Cmax, observed, nonobese individuals” value [1, 2]?
Answer: The value was 6442 ng/mL.

Question: And the “Cτ, observed, nonobese individuals” value [1, 2]?
Answer: Its value is 1532 ng/mL.

Question: What about the “t1/2, observed, nonobese individuals” value [1, 2] of the same substance?
Answer: The value was 13.4 h.

Question: And the “AUCt, observed, obese individuals” value [1, 3]?
Answer: The value was 58 641 ng*h/mL.

Question: What about the “Cmax, observed, obese individuals” value [1, 3] of the same substance?
Answer: Its value is 4367 ng/mL.

Question: What about the “Cτ, observed, obese individuals” value [1, 3] of the same substance?
Answer: Its value is 1556 ng/mL.

Question: And the “t1/2, observed, obese individuals” value [1, 3]?
Answer: The value was 12.8 h.
